The numbers were not newly measured in patent US20130058910A1, “DECONTAMINATION OF CHEMICAL AND BIOLOGICAL AGENTS” (published 2013), which cites them from elsewhere.

The subject of one data set is E. coli. The conditions noted are these: cited from earlier work.
The next data set has as its system S. aureus. Particulars: cited from earlier work.
The subject of data set [1] is methicillin-resistant Staphylococcus aureus (MRSA). The conditions noted are these: multiple MRSA isolates, within 30 minutes; cited from earlier work.

`II`: the “minimal inhibitory concentration (MIC) for bactericidal activity” value in the data set on E. coli is given as 0.6 ppm; in the data set on S. aureus, 0.1 ppm. Regarding bromine, the “minimal inhibitory concentration (MIC) for bactericidal activity” value in the data set with E. coli was 4.3 ppm; with S. aureus it was 28 ppm.

Regarding povidone iodine, the minimal biocidal concentration in data set [1] is reported as 512 ppm.
